Results of unrelated studies side by side (data: NIAID ChemDB).

Shared fields: enzyme or target tests; agent: Hepatitis C virus; target: Nonstructural protein 5B; endpoint: IC50

ICn is the concentration giving n% inhibition. a–b is a range or a potency band. Rows are shuffled and stem from different studies.

{"SMILES": "Cc1cc(N2C(=O)C(=Cc3cc(C(F)(F)F)ccc3Cl)SC2=S)ccc1C(=O)O", "value": "≤1 µM"}
{"SMILES": "CNC(=O)c1c(-c2ccc(F)cc2)oc2cc(N(CC(C)O)S(C)(=O)=O)c(O)cc12", "value": "≤0.5 µM"}
{"SMILES": "Cc1cc(SC2=C(O)CC(CCC(C)C)(C3CCCC3)OC2=O)c(C(C)(C)C)cc1CO", "value": ">50 µM"}
{"SMILES": "O=C(O)CCc1ccc(N2C(=O)C(=Cc3ccc(-c4ccc(Cl)c(Cl)c4)o3)SC2=S)cc1", "value": "≤1 µM"}
{"SMILES": "COc1ccc(CCC2(C3CCCC3)CC(=O)CC(=O)O2)cn1", "value": "10–50 µM"}
{"SMILES": "O=C(O)CN1C(=O)C(=Cc2ccc(-c3cc(C(F)(F)F)ccc3Cl)o2)SC1=S", "value": "≤1 µM"}
{"SMILES": "Cc1cc(OS(=O)(=O)c2cn(C)cn2)c(C(C)(C)C)c(SC2=C(O)CC(C3CCCC3)(C3CCCC3)OC2=O)c1", "value": "10–50 µM"}
{"SMILES": "COc1c(-c2ccc3cc(NS(C)(=O)=O)ccc3c2)cc(-n2ccc(=O)[nH]c2=O)cc1C(C)(C)C", "strain or isolate": "GT 1b-N", "read by": "nucleotide incorporation", "value": "0.0022 µM"}
{"SMILES": "CCNc1cc2oc(-c3ccc(F)cc3)c(C(=O)NC)c2cc1OCCCBr", "value": "≤0.5 µM"}
{"SMILES": "COc1cc(OC)c(CCC2(C3CCCC3)CC(O)=C(Sc3ncc(CO)n3C)C(=O)O2)cc1Cl", "value": "<1 µM"}
{"SMILES": "CCNc1cc2oc(-c3ccc(F)cc3)c(C(=O)NC)c2cc1OC(C)C", "value": "≤0.5 µM"}
{"SMILES": "O=C(O)CCN1C(=O)C(=Cc2ccc(N3C=Cc4ccccc4C3)o2)SC1=S", "value": "≤1 µM"}
{"SMILES": "CNC(=O)c1c(-c2ccc(F)cc2)oc2cc(C(C)(C)O)c(OC)cc12", "value": "≤0.5 µM"}
{"SMILES": "O=C(O)CCN1C(=O)C(=Cc2ccc(-c3cc(C(F)(F)F)cc(C(F)(F)F)c3)o2)SC1=S", "value": "≤1 µM"}
{"SMILES": "CNC(=O)c1c(-c2ccc(F)cc2)oc2cc(N(C)S(C)(=O)=O)c(OCc3ccc4c(c3)OC(C)(C)OC4=O)cc12", "value": "≤0.5 µM"}
{"SMILES": "Cn1cccc(CCC2(C3CCCC3)CC(=O)CC(=O)O2)c1=O", "value": ">50 µM"}